The text below walks through data of PubChem BioAssay AID1259415 (National Center for Advancing Translational Sciences (NCATS), 2018).

This is a selection; strong and weak results do not stand in their true shares. Results filed as inconclusive are left out. Activity calls are given as the source filed them. Cut-off read from the data, not from the text of the source: active = activity change below about -60%; inconclusive = no clear call, values can overlap the other calls; inactive = above about -39%.
% is set by controls: 0 for no effect and ±100 for the full control effect.

This experiment in a line: qHTS Assay for inhibitors of the human cytomegalovirus (HCMV). The conditions noted are these: HFF cells, HCMV-luciferase reporter, 72 h; at 57.5 µM; hits give low values. The source says:
NCGC Assay Overview: Infection with human cytomegalovirus (HCMV) continues to pose significant threats for pregnant women and immunocompromised hosts. HCMV causes serious morbidity and mortality in transplant recipients, and congenital HCMV is the leading infectious cause of mental retardation and deafness in children. In the 1990s, the annual costs associated with the disease burden of congenital CMV were estimated at around $2 billion. A HCMV vaccine is not available yet and HCMV therapies result in intolerable side effects and emergence of drug resistant viruses. […] Towards this goal we have developed and characterized a luciferase HCMV reporter that was initially used in 96 well plates and then optimized to 1536-well plates for utilization in screening of the MLSMR collection, the NGCG diversity collection and the NCGC Pharmaceutical Collection of approved and investigational drugs.
NCGC Assay Protocol Summary:
This is a cell-based assay for HCMV inhibition in HFFs cells. The screening used 2 compound doses and the HCMV-luciferase at MOI of 1 PFU/cell. Cells were treated and infected with HCMV. At 72 h post infection cell lysates were collected and luciferase activity was determined using the Glomax-Multi + Detection System (Promega, Madison, WI). Data were normalized to the controls for basal activity (buffer only) and known HCMV inhibitors Salinmoycin.
1536-well assay protocol for the assay:
(1) Add 3 ul CMV/HFF cell culture. 1000 cells/well in DMEM nirmal media.
(2) Incubate 16 hr at 37C.
(3) Add 23 nl control compound, 10uM of Salinomycin.
(4) Add 23 nl compounds in DMSO solution.
(5) Add 3 ul CMV suspension. Final 1 puf/ul, Virus stock 2000pfu/ul
(6) Incubate 72 hrs at 37C.
(7) Add 4 ul OneGlo Luc Reagent.
(8) Incubate 5 min at room temperature.
(Quantitative high-throughput screening tests each substance at several concentrations.)
Consider `Cc1ccc(NP(=O)(Oc2ccccc2F)Oc2ccccc2F)nc1`, for which the activity change, negative = inhibition was inactive: 21.4%.
As to `CN(C(=O)Cc1ccc(Cl)c(Cl)c1)[C@H]1CCCC[C@@H]1N1CCCC1`, the activity change, negative = inhibition was inactive: 70.4%.
With `ClCCSc1nnc(-c2cccnc2)o1`, the activity change, negative = inhibition was inactive: 17.8%.
For the molecule `CC(C)c1ccc(OP(=O)(Nc2ccccn2)Oc2ccccc2F)cc1` (stereo unspecified), the activity change, negative = inhibition was inactive: 0.489%.
With `COC(=O)C1(C)COP(=O)(N2CCCCCC2)OC1` (stereo unspecified), the activity change, negative = inhibition was inactive: 15.5%.
Consider `O=C(OC1CN2CCC1CC2)c1cccc2[nH]cnc12` (stereo unspecified), for which the activity change, negative = inhibition is inactive: 56.3%.
Take `CCN(CC)C(=S)SC(NC=O)C(Cl)(Cl)Cl` (stereo unspecified): the activity change, negative = inhibition is inactive: -7.33%.
`C[As](=O)(O)c1cccc(C(=O)O)c1`: the activity change, negative = inhibition was inactive: -10.9%.
For the molecule `COc1cc(C(=O)NCC2(N3CCOCC3)CCCCC2)ccc1OCC(C)C`, the activity change, negative = inhibition is inactive: -18.2%.
Take `O=[N+]([O-])c1ccc(-c2cc([N+](=O)[O-])c(O)c([N+](=O)[O-])c2)cc1`: the activity change, negative = inhibition was inactive: -30.3%.
Regarding `[N-]=[N+]=NC1CCCCC1NC(=O)c1cc([N+](=O)[O-])cc([N+](=O)[O-])c1` (stereo unspecified), the activity change, negative = inhibition is inactive: 38.3%.
Regarding `Cc1ccc(OP(=O)(Nc2ccc([N+](=O)[O-])cn2)Oc2ccc(C)cc2)cc1`, the activity change, negative = inhibition was inactive: -35.6%.
As for `Cc1ccc2nc3c(c(C)c2c1)CC(C(Cl)Cl)S3` (stereo unspecified), the activity change, negative = inhibition was inactive: 32%.
As for `O=[N+]([O-])c1cc(Oc2ccc([N+](=O)[O-])cc2C(F)(F)F)cc([N+](=O)[O-])c1`, the figure is inactive: -12.5%.
Turning to `COc1ccc(N/C(=N/P(=O)(N2CCOCC2)N2CCOCC2)N2CCOCC2)cc1`, the activity change, negative = inhibition is inactive: 23.3%.
Take `Cc1c2c(nc3ccccc13)SC(C(Cl)Cl)C2` (stereo unspecified): the activity change, negative = inhibition is inactive: -25.9%.
Regarding `O=C(OC1CN2CCC1CC2)C12CC3CC(CC(C3)C1)C2` (stereo unspecified), the activity change, negative = inhibition is inactive: 5.06%.
In the case of `Cc1cc(=O)[nH]c(N[N+](=O)[O-])n1`, the activity change, negative = inhibition was inactive: -37.9%.
On to `O=P1(N(CCCl)CCCl)Nc2ccccc2N1`, for which the activity change, negative = inhibition was inactive: 94.2%.
As for `O=P1(N(CCCl)CCCl)OCCCN1CCCl` (stereo unspecified), the figure is inactive: -4.11%.
As to `COc1ccc2nc(NP(=O)(c3ccccc3)c3ccccc3)sc2c1`, the activity change, negative = inhibition was inactive: -6.3%.
Regarding `COc1cc(I)ccc1[As](=O)(O)O`, the activity change, negative = inhibition was active: -61.6%.
Turning to `O=C(OC1CN2CCC1CC2)c1cccc([N+](=O)[O-])c1` (stereo unspecified), the activity change, negative = inhibition is inactive: 12.9%.
As for `CCOC(=O)c1ccc(NC(=O)C(C)(CCl)SC)cc1` (stereo unspecified), the activity change, negative = inhibition was inactive: 70.3%.
As for `CCC(C)N(CC(C)C)C(=S)SC(NC(C)=O)C(Cl)(Cl)Cl` (stereo unspecified), the activity change, negative = inhibition is inactive: -30.8%.
`COC(=O)C1(C)COP(=O)(N2CCCC2)OC1` (stereo unspecified): the activity change, negative = inhibition is inactive: 5.68%.
Regarding `O=C(COc1ccccc1)OC1CN2CCC1CC2` (stereo unspecified), the activity change, negative = inhibition is inactive: 95.8%.
As to `O=C(Nc1ccncc1[N+](=O)[O-])c1ccc([N+](=O)[O-])cc1[N+](=O)[O-]`, the activity change, negative = inhibition is active: -73.9%.
As for `CCOC(=O)Nc1cccc([As](=O)(O)O)c1`, the figure is inactive: 8.81%.
In the case of `O=P(Nc1ccccn1)(c1cccc2ccccc12)c1cccc2ccccc12`, the activity change, negative = inhibition was inactive: -18.3%.
As for `Cc1cc(SC(NC=O)C(Cl)(Cl)Cl)ncn1` (stereo unspecified), the figure is inactive: 1.13%; as for `O=[N+]([O-])c1ccc(Nc2ccc(Oc3ccc([N+](=O)[O-])cc3[N+](=O)[O-])cc2)c([N+](=O)[O-])c1`, inactive: -7.57%; as for `O=C(O)C(O)c1ccc(N(CCCl)CCCl)cc1` (stereo unspecified), inactive: 5.24%.
As for `CC1CCNP(=O)(N(CCCl)CCCl)O1` (stereo unspecified), the figure is inactive: 17.5%; as for `COP(=O)(OC)N1CC1c1ccccc1` (stereo unspecified), inactive: -5.89%; as for `CCCCOc1ccc(C(=O)NCC2(N3CCCCC3)CCCCC2)cc1OC`, inactive: 4.47%.
With `Cc1cc(SC(NC(=O)c2ccccc2)C(Cl)(Cl)Cl)nc(C(C)C)n1` (stereo unspecified), the activity change, negative = inhibition is inactive: -37.4%.
Consider `Cc1ccc(S(=O)(=O)N(CCCN)CCCc2c(C)nc(N)[nH]c2=O)cc1`, for which the activity change, negative = inhibition is inactive: 38.8%.
Take `O=P1(Nc2ncccn2)COc2ccccc2OC1`: the activity change, negative = inhibition was inactive: -6.55%.
As to `Nc1cccc([As](=O)(O)c2ccccc2)c1`, the activity change, negative = inhibition was inactive: -31.3%.
Next, `O=P1(Nc2ccc(Br)cn2)COc2ccccc2OC1`: inactive: -15.8%.
In the case of `Cc1ccc(OCC(=O)OC2CN3CCC2CC3)cc1` (stereo unspecified), the activity change, negative = inhibition was inactive: -9.59%.
Consider `Cc1nn(-c2ccccc2)c2c1P(=O)(N1CCOCC1)N(C)C(c1ccccc1)=N2` (stereo unspecified), for which the activity change, negative = inhibition was inactive: -5.18%.
Next, `CC1CCC(C(C)C)C(OP(=O)(Nc2ccccn2)c2ccccc2)C1` (stereo unspecified): inactive: -22%; `Cc1ccc(C(=O)OC2CN3CCC2CC3)cc1` (stereo unspecified): inactive: 22.8%.
With `CN(C)C1(CNC(=O)c2ccc(S(C)(=O)=O)cc2)CCCCC1`, the activity change, negative = inhibition is inactive: -4.22%.
On to `O=C(/C=C/c1ccccc1)OC1CN2CCC1CC2` (stereo unspecified), for which the activity change, negative = inhibition is inactive: 10.9%.
Consider `CCCC1OP(=O)(Nc2ccccc2)OCC1CC` (stereo unspecified), for which the activity change, negative = inhibition was inactive: -32%.
For the molecule `COc1ccccc1CNC(=O)COC(=O)C(O)(c1ccccc1)c1ccccc1`, the activity change, negative = inhibition was inactive: 10.7%.
Turning to `CC(C)/C=N\N=C(\N)N[N+](=O)[O-]`, the activity change, negative = inhibition was inactive: 2.98%.
In the case of `CN(C(=O)Cc1ccc(Cl)c(Cl)c1)C1CCCC[C@@H]1N1CCCC1` (stereo partly specified), the activity change, negative = inhibition was inactive: -31%.
